Measured values from several laboratories, pooled; numbers as filed in NIAID ChemDB.

Common to all: tests in culture; agent: Hepatitis B virus; cells: HepG2.117; read-out: EC50

Conditions beyond the fields shown may differ between rows. Blank or dashed fields: not listed here. ECn is the concentration giving n% inhibition of infection, replication or growth. a–b is a range or a potency band.

| compound | strain or isolate | method | conditions | value |
|---|---|---|---|---|
| C[C@@H]1Cc2nn3c(c2CN1C(=O)c1ccc(Cl)c(C#N)c1)C(=O)N(Cc1ccc(S(F)(F)(F)(F)F)cc1)CC3 |  | PCR |  | 0.113 µM |
| CNC(=O)c1ccc(-n2c(=O)c3c(n4ncc(CC(C)C)c24)CN(C(=O)c2ccc(Br)c(Cl)c2)[C@@H](C)C3)cc1 |  | luminescence |  | 0.05–0.5 µM |
| O=C(c1ccc(Br)c(Cl)c1)N1CCS(=O)(=O)[C@](F)(C(=O)NCc2ccccc2)C1 |  | PCR |  | <0.1 µM |
| CNC(=O)c1ccc(-n2c(-n3nc(C)cc3C)nc3c(c2=O)C[C@@H](C)N(C(=O)c2ccc(Br)c(C(F)(F)F)c2)C3)cc1Cl | Genotype D | PCR |  | ≤0.05 µM |
| C[C@@H](NC(=O)c1c2n(c(=O)n1-c1ccc(OC3CC3)cc1)C[C@H](C)N(C(=O)c1ccc(Br)c(Cl)c1)C2)c1ccccc1 |  | PCR |  | 0.1–0.5 µM |
| Cc1cc(C)n(-c2nc3c(c(=O)n2-c2ccc(OC4CC(O)C4)nc2)C[C@@H](C)N(C(=O)c2ccc(Br)c(C(F)(F)F)c2)C3)n1 | Genotype D | PCR |  | ≤0.05 µM |
| NC(=O)c1ccc(-n2c(C(=O)NCc3ccccc3)c3n(c2=O)CCN(C(=O)c2ccc(Br)c(Cl)c2)C3)cc1 |  | PCR |  | >5 µM |
| CNc1n[nH]c2cc(-n3c(=O)c4c(n5ncc(CC(C)C)c35)CN(C(=O)c3ccc(Br)c(Cl)c3)[C@@H](C)C4)ccc12 |  | luminescence |  | 0.05–0.5 µM |
| Cc1cc(C)n(-c2nc3c(c(=O)n2-c2ccc(OC[C@@H](O)CO)cc2)C[C@@H](C)N(C(=O)c2ccc(Br)c(C(F)(F)F)c2)C3)n1 | Genotype D | PCR |  | 0.05–0.5 µM |
| O=C(NCc1c(F)cccc1Cl)c1c2n(c(=O)n1-c1ccc(OC3CC3)cc1)CCN(C(=O)c1ccc(Br)c(Cl)c1)C2 |  | PCR |  | 0.1–0.5 µM |
| CNC(=O)c1ccc(-n2c(-n3nc(C)cc3C)nc3c(c2=O)C[C@@H](C)N(C(=O)c2ccc(Br)c(C(F)(F)F)c2)C3)cn1 | Genotype D | PCR |  | ≤0.05 µM |
| CNC(=O)c1ccc(-n2c(=O)c3c(n4ncc(Cc5ccc(C#N)cc5F)c24)CN(C(=O)c2ccc(Br)c(Cl)c2)CC3)cc1 |  | PCR | 3 d | <0.1 µM |
| N#Cc1ccc(-n2c(C(=O)NCc3ccccc3)c3n(c2=O)CCN(C(=O)c2ccc(Br)c(Cl)c2)C3)c(Cl)c1 |  | PCR |  | >5 µM |
| C[C@H]1CS(=O)(=O)[C@H](c2cccs2)CN1C(=O)Nc1ccc(F)c(Cl)c1 |  | PCR |  | 0.5–5 µM |
| CC(=O)Nc1cccc([C@@H](C)N2CCn3cc4c(c3C2=O)CN(C(=O)c2ccc(Cl)c(C#N)c2)[C@H](C)C4)c1 |  | PCR |  | 0.047 µM |
| O=C(Nc1ccc(F)c(Cl)c1)N1CCc2c(n3nccc3n(Cc3ccccc3)c2=O)C1 |  | PCR | 3 d | 0.5–5 µM |
| C[C@@H]1Cc2c(n3ncc(Cc4ccccc4)c3n(-c3ccc(-c4noc(=O)n4C)cc3)c2=O)CN1C(=O)c1ccc(Br)c(C(F)(F)F)c1 |  | luminescence |  | ≤0.05 µM |
| O=C(c1ccc(Br)c(Cl)c1)N1CCc2c(n3ncc(Cc4ccccc4)c3n(-c3ccc(-c4ncc[nH]4)cc3)c2=O)C1 |  | PCR | 3 d | 0.5–5 µM |
| O=C(c1ccc(Br)c(Cl)c1)N1CCS(=O)(=O)[C@@H](c2ccccc2)C1 |  | PCR |  | 0.1–0.5 µM |
| COc1ccc([C@@H](C)NC(=O)c2c3n(c(=O)n2-c2ccc(-n4cccn4)cc2)CCN(C(=O)c2ccc(Br)c(Cl)c2)C3)c(F)c1 |  | PCR |  | <0.1 µM |
| CC(C)Cc1cnn2c3c(c(=O)n(-c4ccc(-c5nc(=O)on5C)cc4)c12)C[C@H](C)N(C(=O)c1ccc(Br)c(C(F)(F)F)c1)C3 |  | luminescence |  | 0.05–0.5 µM |
| CC(C)NC(=O)c1cnn2c3c(c(=O)n(-c4ccccc4)c12)CCN(C(=O)c1ccc(Cl)c(Cl)c1)C3 |  | PCR | 3 d | >5 µM |
| O=C(c1ccc(Br)c(Cl)c1)N1CCS(=O)(=O)[C@@](F)(C(=O)NCc2ccccc2)C1 |  | PCR |  | 0.5–5 µM |
| C[C@@H]1Cc2c(n3ncc(CC4CC4)c3n(-c3ccc(-c4n[nH]nc4N)cc3)c2=O)CN1C(=O)c1ccc(Br)c(C(F)(F)F)c1 |  | luminescence |  | ≤0.05 µM |
| Cc1cc(C)n(-c2nc3c(c(=O)n2-c2ccc(N4CC[C@H](O)C4)nc2)C[C@@H](C)N(C(=O)c2ccc(Br)c(C(F)(F)F)c2)C3)n1 | Genotype D | PCR |  | ≤0.05 µM |
| CNC(=O)c1ccc(-n2c(=O)c3c(n4ncc(Cc5ccc(OC)cc5F)c24)CN(C(=O)c2ccc(Br)c(C#N)c2)CC3)cc1 |  | PCR | 3 d | 0.1–0.5 µM |
| COc1ccc(-n2c(C(=O)NCc3ccccc3)c3n(c2=O)CCN(C(=O)c2cc4c(Cl)cccc4[nH]2)C3)cc1 |  | PCR |  | 0.1–0.5 µM |
| CNC(=O)c1ccc(-n2c(=O)c3c(n4ncc(NCc5ccccc5)c24)CN(C(=O)c2ccc(Br)c(Cl)c2)CC3)cc1 |  | PCR | 3 d | <0.1 µM |
| CC(=O)Nc1ccc([C@H](C)N2CCn3nc4c(c3C2=O)CN(C(=O)c2ccc(Br)c(C#N)c2)[C@H](C)C4)cc1 |  | PCR |  | 0.025 µM |
| CC(C)NC(=O)C1CN(C(=O)c2ccc(Br)c(Cl)c2)CCS1(=O)=O |  | PCR |  | 0.5–5 µM |
| CC1Cc2c(n3ncc(Cc4ccccc4)c3n(-c3ccc(-n4nnnc4C(F)(F)F)cc3)c2=O)CN1C(=O)c1ccc(Br)c(C(F)(F)F)c1 |  | luminescence |  | 0.05–0.5 µM |
| Cc1cc(C)n(-c2nc3c(c(=O)n2-c2ccc(OC4CC(O)C4)cc2)C[C@@H](C)N(C(=O)c2ccc(Br)c(C(F)(F)F)c2)C3)n1 | Genotype D | PCR |  | ≤0.05 µM |
| C[C@H]1Cc2c(n3ncc(Cc4ccccc4)c3n(-c3ccc4c(c3)nnn4C)c2=O)CN1C(=O)c1ccc(Br)c(C(F)(F)F)c1 |  | luminescence |  | ≤0.05 µM |
| Cc1cc(C)n(-c2nc3c(c(=O)n2-c2ccc4c(c2)ncn4C)C[C@@H](C)N(C(=O)c2ccc(Br)c(C(F)(F)F)c2)C3)n1 | Genotype D | PCR |  | ≤0.05 µM |
| O=C(NCCc1ccccc1)C1CN(C(=O)c2ccc(Br)c(Cl)c2)CCS1(=O)=O |  | PCR |  | 0.5–5 µM |
| Cc1cc(C)n(-c2nc3c(c(=O)n2-c2ccc(N4CCN(C)CC4)nc2)C[C@@H](C)N(C(=O)c2ccc(Br)c(C(F)(F)F)c2)C3)n1 | Genotype D | PCR |  | ≤0.05 µM |
| O=C(c1ccc(Br)c(Cl)c1)N1CCc2c(n3nccc3n(-c3ccccc3)c2=O)C1 |  | PCR | 3 d | 0.5–5 µM |
| CC(=O)Nc1cccc([C@H](C)N2CCn3nc4c(c3C2=O)CN(C(=O)c2ccc(Cl)c(C#N)c2)[C@H](C)C4)c1 |  | PCR |  | 0.127 µM |